{"source": "PubChem BioAssay AID624099 (ICCB-Longwood, 2012)", "screen": "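Host factors E2 relies on to silence an HPV18 LCR reporter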 (primary screen)", "system": "human C33A cervical carcinoma cells (HPV-negative) stably expressing BPV1 E2 and an HPV18 LCR luciferase reporter", "reagents": "siRNA pool against human genes, 40 nM", "timing": "72 h", "measurement": "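Per-well luciferase luminescence, z-scored on each plate against the plate mean and SD with control wells left out, then averaged across three replicate plates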", "direction": "mean z-score and z-score: higher = stronger reporter signal, weaker E2 silencing", "call rule": "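Hit if mean z-score reaches 2 and two or more of three replicate z-scores also reach 2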", "note": "The deposit covers about 21,000 reagents; this is an unselected part. 497 of all reagents (2.4%) were called active. 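Higher z means weaker E2 silencing; only reporter increases were scored, and knock-downs that hurt cell survival may mask genuine repressor factors.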"}
{"gene": "BSG", "mean z-score": -0.38, "z-score, replicate A": -0.13, "z-score, replicate B": -0.74, "z-score, replicate C": -0.28, "outcome": "inactive"}
{"gene": "CHMP1B", "mean z-score": -1.13, "z-score, replicate A": -1.35, "z-score, replicate B": -0.93, "z-score, replicate C": -1.11, "outcome": "inactive"}
{"gene": "OLA1", "mean z-score": -0.45, "z-score, replicate A": -0.16, "z-score, replicate B": -0.16, "z-score, replicate C": -1.03, "outcome": "inactive"}
{"gene": "MRPL50", "mean z-score": 0.38, "z-score, replicate A": 0.26, "z-score, replicate B": 0.38, "z-score, replicate C": 0.49, "outcome": "inactive"}
{"gene": "IFNA16", "mean z-score": -0.68, "z-score, replicate A": -0.68, "z-score, replicate B": -0.72, "z-score, replicate C": -0.64, "outcome": "inactive"}
{"gene": "LOC401079 (retired record)", "mean z-score": -0.85, "z-score, replicate A": -1.03, "z-score, replicate B": -0.73, "z-score, replicate C": -0.78, "outcome": "inactive"}
{"gene": "TAOK1", "mean z-score": -0.56, "z-score, replicate A": 0.03, "z-score, replicate B": -0.6, "z-score, replicate C": -1.12, "outcome": "inactive"}

An excerpt from above, limited to “mean z-score”.
IFNA16 = -0.68
LOC401079 (retired record) = -0.85

Continued.
{"gene": "TMEM213", "mean z-score": 0.16, "z-score, replicate A": 0.08, "z-score, replicate B": 0.2, "z-score, replicate C": 0.19, "outcome": "inactive"}
{"gene": "DDX19B", "mean z-score": -0.9, "z-score, replicate A": -0.86, "z-score, replicate B": -0.9, "z-score, replicate C": -0.93, "outcome": "inactive"}
{"gene": "TRIM16L", "mean z-score": -0.65, "z-score, replicate A": -0.95, "z-score, replicate B": -0.25, "z-score, replicate C": -0.75, "outcome": "inactive"}
{"gene": "RAB24", "mean z-score": 0.38, "z-score, replicate A": 0.37, "z-score, replicate B": 0.36, "z-score, replicate C": 0.4, "outcome": "inactive"}
{"gene": "GZMH", "mean z-score": 0.22, "z-score, replicate A": -0.15, "z-score, replicate B": 0.47, "z-score, replicate C": 0.35, "outcome": "inactive"}
{"gene": "RNF5P1", "mean z-score": 0.36, "z-score, replicate A": 0.61, "z-score, replicate B": 0.33, "z-score, replicate C": 0.14, "outcome": "inactive"}
{"gene": "LOC400050 (retired record)", "mean z-score": 0.27, "z-score, replicate A": 0.26, "z-score, replicate B": -0.12, "z-score, replicate C": 0.67, "outcome": "inactive"}
{"gene": "KLHL15", "mean z-score": -0.22, "z-score, replicate A": -0.27, "z-score, replicate B": -0.31, "z-score, replicate C": -0.08, "outcome": "inactive"}
{"gene": "PITX3", "mean z-score": 0.67, "z-score, replicate A": 0.65, "z-score, replicate B": 0.66, "z-score, replicate C": 0.7, "outcome": "inactive"}
{"gene": "ZNF615", "mean z-score": 0.06, "z-score, replicate A": -0.18, "z-score, replicate B": 0.38, "z-score, replicate C": -0.02, "outcome": "inactive"}
{"gene": "ATXN7L2", "mean z-score": 0.16, "z-score, replicate A": -0.03, "z-score, replicate B": 0.4, "z-score, replicate C": 0.1, "outcome": "inactive"}
{"gene": "GJB3", "mean z-score": -0.65, "z-score, replicate A": -0.66, "z-score, replicate B": -0.66, "z-score, replicate C": -0.64, "outcome": "inactive"}
{"gene": "UCN2", "mean z-score": -0.42, "z-score, replicate A": -0.3, "z-score, replicate B": -0.61, "z-score, replicate C": -0.35, "outcome": "inactive"}
{"gene": "MRPL37", "mean z-score": -0.7, "z-score, replicate A": 0.02, "z-score, replicate B": -1.03, "z-score, replicate C": -1.09, "outcome": "inactive"}
